Reference: US20230304022, “CHIMERIC POLYPEPTIDES HAVING TARGETED BINDING SPECIFICITY” (The Scripps Research Institute, published 2023)
Positions count from the first letter of the chain named.

B1: Avr 5'G biotin hairpin (dsDNA)
DNA: ATCTTAGCACCTGGTTGGAGGGGGTTTATCGGGTTTTCCCGATAAACCCCCTCCAACCAGGTGCTAAGAT
B2: Avr 5'A biotin hairpin (dsDNA)
DNA: B1 DNA with C30T, G41A
B3: Avr 5'C biotin hairpin (dsDNA)
DNA: B1 DNA with C30G, G41C

What was measured:
[1] = biological target: MBP-TALE AvrXa7 NT-G (synthetic, [XXX]=SRS); test: p228, FIG 26
[2] = biological target: MBP-TALE AvrXa7 NT-αN (synthetic, [XXX]=RGA); test: p228, FIG 26

| Binder | binding result [1] | binding result [2] |
| --- | --- | --- |
| B1 | binds | binds |
| B2 |  | binds |
| B3 |  | binds |
